Measured values from several laboratories, pooled; numbers as filed in NIAID ChemDB.

All rows: growth or infection tests; species: Hepatitis C virus

ECn is the concentration giving n% inhibition of infection, replication or growth. Rows are shuffled and stem from different studies. An empty or dashed field is not shown.

SMILES | strain | measure | mutations | cell line | method | conditions | result
CCCCCOc1cc2c(cc1-c1cc(/C=C/C(=O)O)ccc1O)C(C)(C)CCC2(C)C | - | EC50 | - | Huh7.5.1 | MTT | - | 0.00568 µM
O=C(CN[C@@H](CSCc1ccccc1)C(=O)Nc1ccc(C2SC(=Nc3cccc(F)c3)N(Cc3ccco3)C2=O)cc1)c1ccccc1 | genotype 1 | EC50 | - | - | replicon | genotype 1b | >50 µM
COc1c(CC=C(C)C)c(O)cc2oc(=O)c3c(c12)Cc1cc(O)ccc1-3 | 2a | EC50 | - | Huh7.5 | microscopy / fluorescence | - | 4.6 µg/mL
O=C(O)c1cccc([As]=[As]c2cccc(C(=O)O)c2)c1 | sg1b | EC50 | - | Huh7-1 | PCR | - | 0.7 µM
COC(=O)c1cn([C@@H]2C[C@H](CO)C[C@H]2O)nn1 | - | EC50 | - | Huh7 | - | - | >320 µM
C[C@@H]1CC[C@H]2[C@@H](C)C(=O)O[C@@H]3OC4(C)CC[C@@H]1[C@]32OO4 | - | EC50 | - | HuH6 | replicon | - | 14 µM
CC(C)CCn1c(=O)/c(=C2\Nc3ccc(NS(C)(=O)=O)cc3S(=O)(=O)N2)c(=O)c2cccn21 | 1b | EC50 | - | HCV Huh-7/C24 | replicon | - | 0.0085 µM
Nc1ccn([C@@H]2O[C@H](CO)[C@@H](O)/C2=C/F)c(=O)n1 | - | EC90 | - | Huh7 | PCR | - | >100 µM
C[C@H](NP(=O)(N[C@@H](C)C(=O)OC(C)(C)C)OC[C@H]1O[C@@H](n2cnc(C(N)=O)n2)[C@H](O)[C@@H]1O)C(=O)OC(C)(C)C | - | EC50 | - | Huh7 | replicon | genotype 1b | >100 µM
O=C(O)c1cc2c(s1)c(C1CCCCC1)c(-c1ccccc1)n2Cc1ccncc1 | - | EC50 | - | Huh7 | - | - | 4.2 µM
CC[C@H]1C[C@]1(NC(=O)[C@@H]1C[C@@H]2CN1C(=O)[C@H](C(C)(C)C)NC(=O)OCC(C)(C)CCCCc1cccc3c1CN(C3)C(=O)O2)C(=O)NS(=O)(=O)C1CC1 | JFH-1 | EC50 | - | Huh7.5 | antigen | - | 0.024 µM
CC1(C)[C@@H](O)CC[C@]2(C)[C@H]3C(=O)C=C4[C@@H]5C[C@@](C)(C(=O)O)CC[C@]5(C)CC[C@@]4(C)[C@]3(C)CC[C@@H]12 | 2a | EC50 | - | Huh7.5 | microscopy / fluorescence | - | 40 µg/mL
CCC[C@]1(CC(=O)O)OCCc2c1[nH]c1c(C)ccc(C#N)c21 | 1b BBT (WT) | EC50 | - | - | replicon | - | 12.2 µM
CCC[C@H](NC(=O)[C@@H]1[C@H]2CCC[C@H]2CN1C(=O)[C@@H](NC(=O)[C@@H](NC(=O)c1cnccn1)C1CCCCC1)C(C)(C)C)C(=O)C(=O)NC1CC1 | 1b C159S | EC50 | - | - | luciferase | - | 0.623 µM
CC1(C)[C@@H](O[C@H]2O[C@H](C(=O)O)[C@@H](O)[C@H](O)[C@H]2O[C@@H]2O[C@H](C(=O)O)[C@@H](O)[C@H](O)[C@H]2O)CC[C@]2(C)[C@H]3C(=O)C=C4[C@@H]5C[C@@](C)(C(=O)O)CC[C@]5(C)CC[C@@]4(C)[C@]3(C)CC[C@@H]12 | 2a | EC50 | - | Huh7.5 | microscopy / fluorescence | - | 180 µg/mL
COC(=O)c1cn([C@@H]2C[C@H](CCP(=O)(O)O)C[C@H]2O)nn1 | - | EC50 | - | Huh7 | - | - | >320 µM
C[C@@]1(O)[C@H](O)[C@@H](CO)O[C@H]1n1cnc2c(N)ncnc21 | - | EC90 | - | Huh7 | PCR | - | 1.4 µM
Cc1cc(N2CCOCC2)nc2ccc(Cc3ccc4nc(N5CCOCC5)cc(C)c4c3)cc12 | JFH-1 | EC50 | - | Huh7-1 | PCR | - | 3.6 µM
CN(C)C(=O)Cn1c(-c2ccc(Cl)cc2)c(C2CCCCC2)c2sc(C(=O)O)cc21 | - | EC50 | - | Huh7 | - | - | 1.2 µM
CC1(C)CCC(C)(C)C2C=C(NC(=O)c3ccc(C(=O)O)cc3)C=CC21 | - | EC50 | - | Huh7.5.1 | MTT | - | 0.00000647 µM
CCCCn1cnc2c(c(CC#N)nn2-c2ccccc2)c1=N | sg1a (H77) | EC50 | - | Huh7-1 | PCR | - | 10.1 µM
NC(=O)c1nn(Cc2cccc(NC(=O)c3cccc(F)c3)c2)c2ccccc12 | J399EM | EC50 | - | Huh7.5.1 | fluorescence | - | 0.238 µM
CC1(C)CCC(C)(C)c2cc(C3(c4ccc(C(=O)O)cc4)OCCO3)ccc21 | - | EC50 | - | Huh7.5.1 | MTT | - | 0.00145 µM
NC(=O)c1nn(Cc2cccc(NC(=O)c3ccc([N+](=O)[O-])cc3)c2)c2ccccc12 | J399EM | EC50 | Luciferase reporter gene | Huh7.5.1 | luciferase / replicon | - | 0.024 µM
Cc1c(-c2ccc(-c3ccccc3F)cc2)nc2ccc(F)cc2c1C(=O)O | - | EC90 | - | Huh7 | PCR | - | >100 µM
COc1cc(C)cc2c(-c3c(O)cc(O)c4c3CC(C)NC4C)cc(-c3cc(-c4c(O)cc(O)c5c4CC(C)NC5C)c4cc(C)cc(OC)c4c3O)c(O)c12 | JFH-1 | EC50 | - | Huh7-1 | PCR | - | 8 µM
CN1CCCC(CN(C)C(=O)Cn2c(-c3ccccc3)c(C3CCCCC3)c3sc(C(=O)O)cc32)C1 | - | EC50 | - | Huh7 | - | - | 1.2 µM
NC(=O)c1nnn([C@@H]2C[C@H](CO)C[C@H]2O)c1N | - | EC50 | - | Huh7 | - | - | >320 µM
O=C1C[C@@H](c2ccc(OC3O[C@H](CO)[C@@H](O)[C@H](O)[C@H]3O)cc2)Oc2cc(O)ccc21 | 2a | EC50 | - | Huh7.5 | microscopy / fluorescence | - | 75 µg/mL
CN1c2cc3c(cc2N=C(c2ccc(C(=O)O)cc2)c2ccccc21)C(C)(C)CCC3(C)C | - | EC50 | - | Huh7.5.1 | MTT | - | 0.00000477 µM
Cc1ccc(C(=O)Nc2cccc(Cn3nc(C(N)=O)c4ccccc43)c2)cc1 | J399EM | EC50 | - | Huh7.5.1 | fluorescence | - | 0.115 µM
NC(=O)c1cn([C@@H]2C[C@H](CO)C[C@H]2O)nn1 | - | EC50 | - | Huh7 | - | - | >320 µM
CC(=N/O)/C(C)=N/O | JFH-1 | EC50 | - | Huh7-1 | PCR | - | 18.9 µM
CCC[C@H](NC(=O)[C@@H]1[C@H]2CCC[C@H]2CN1C(=O)[C@@H](NC(=O)[C@@H](NC(=O)c1cnccn1)C1CCCCC1)C(C)(C)C)C(=O)C(=O)NC1CC1 | JFH1Res | EC50 | L1062M R1181K | Huh7.5 | antigen | - | 4.763 µM
NC(=O)c1csc([C@@H]2O[C@H](CO)[C@@H](O)[C@H]2O)n1 | - | EC90 | - | - | PCR | - | >100 µM
CS(=O)(=O)Nc1ccc2c(c1)S(=O)(=O)N/C(=c1\c(=O)c3cccn3n(Cc3ccc(F)c(Cl)c3)c1=O)N2 | 1b | EC50 | - | HCV Huh-7/C24 | replicon | - | 0.022 µM
CCC[C@H](NC(=O)[C@@H]1[C@H]2CCC[C@H]2CN1C(=O)[C@@H](NC(=O)[C@@H](NC(=O)c1cnccn1)C1CCCCC1)C(C)(C)C)C(=O)C(=O)NC1CC1 | genotype 1b | EC50 | Y93N | Huh7.5 | luciferase / reporter gene | - | 0.1581 µM
CC1=C(/C=C/C(C)=C/C=C/C(C)=C/C(=O)O)C(C)(C)CCC1 | - | EC50 | - | Huh7.5.1 | MTT | - | 0.00445 µM
O=c1cnn([C@@H]2O[C@H](CO)[C@@H](O)[C@H]2O)c(=S)[nH]1 | - | EC90 | - | Huh7 | PCR | - | >100 µM
NC(=O)c1nn(Cc2cccc(NC(=O)c3cccc([N+](=O)[O-])c3)c2)c2ccccc12 | J399EM | EC50 | - | Huh7.5.1 | fluorescence | - | 0.213 µM
CCN(CC)CCN1C(=O)c2cccc3cc(N)cc(c23)C1=O | sg2a (JFH) | EC50 | - | Huh7-1 | PCR | - | 3.9 µM
CC(=O)N(O)CCCCCNC(=O)CCC(=O)N(O)CCCCCNC(=O)CCC(=O)N(O)CCCCCN | - | EC90 | - | Huh7 | PCR | - | >100 µM
O=C(CN[C@@H](Cc1ccccc1)C(=O)Nc1ccc(C2SC(=Nc3cccc(F)c3)N(Cc3ccco3)C2=O)cc1)c1ccccc1 | genotype 1 | EC50 | - | - | replicon | genotype 1b | >50 µM

For reference, 3 entries again:

SMILES	strain	measure	mutations	cell line	method	conditions	result
Cc1cc(N2CCOCC2)nc2ccc(Cc3ccc4nc(N5CCOCC5)cc(C)c4c3)cc12	JFH-1	EC50	-	Huh7-1	PCR	-	3.6 µM
CCN(CC)CCN1C(=O)c2cccc3cc(N)cc(c23)C1=O	sg2a (JFH)	EC50	-	Huh7-1	PCR	-	3.9 µM
NC(=O)c1csc([C@@H]2O[C@H](CO)[C@@H](O)[C@H]2O)n1	-	EC90	-	-	PCR	-	>100 µM